{"sequences": {"note": "Chains of the proteins cited; added tags and fusions are not shown. Lines headed by an entry give the natural chain unless they say otherwise; changes in a name come on top.", "UniProt P62136": "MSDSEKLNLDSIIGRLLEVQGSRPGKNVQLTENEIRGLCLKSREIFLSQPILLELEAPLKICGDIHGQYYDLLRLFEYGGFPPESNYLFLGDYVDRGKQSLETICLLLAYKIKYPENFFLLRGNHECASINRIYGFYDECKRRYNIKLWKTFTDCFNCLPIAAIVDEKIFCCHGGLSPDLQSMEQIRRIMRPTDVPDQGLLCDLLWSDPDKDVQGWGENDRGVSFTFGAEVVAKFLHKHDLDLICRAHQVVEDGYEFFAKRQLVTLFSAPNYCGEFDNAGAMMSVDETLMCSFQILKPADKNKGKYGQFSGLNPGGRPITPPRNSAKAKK"}, "source": "paper PMC7764552", "about": "“Regulation Efficacy and Mechanism of the Toxicity of Microcystin-LR Targeting Protein Phosphatase 1 via the Biodegradation Pathway” (2020)", "target": "PP1 (Homo sapiens, UniProt P62136)", "assay": "Protein phosphatase 1 (PP1) inhibition assay, colorimetric"}
{"substance": "(2S, 3S, 8S, 9S)-3-amino-9-methoxy-2,6,8-trimethyl-10-phenyldeca-4(E), 6(E)-dienoic acid", "values": [{"measurement": "secondary toxicity (PP1 inhibition), in words", "setting": "PP1 inhibition assay, conclusion", "value": "non-negligible"}, {"measurement": "inhibition effect on PP1 (in words)", "setting": "colorimetric, p-nitrophenyl disodium orthophorphate 5 mM, 0.5 h pre-incubation with PP1, 1 h incubation, 405 nm, three repeated analyses, Figure 3", "value": "had a certain inhibition effect on PP1 at a higher concentration"}]}
